Test results as given in publication PMC12538275, “Fat or flat? The impact of dipole moment vectors on non-covalent interactions between aromatic tags and macromolecules” (Inorganic Chemistry Frontiers, 2025).

Biological target: SmCB1 (Schistosoma mansoni, UniProt Q8MNY2, T185A/T300A)
Conditions: read-out: Ki SmCB1; kinetic activity assay, triplicate, pH 5.5, 37 °C
Excerpt: Enzymatic activity was monitored either fluorometrically with peptide–AMC substrates, which release 7-amino-4-methylcoumarin (AMC) as a fluorescent product, or spectrophotometrically with peptide–pNA substrates, which liberate p-nitroaniline (pNA). Reaction rates were obtained from the slopes of the linear progress curves and expressed as relative fluorescence units per second (RFU s^−1) or as absorbance units per second (AU s^−1). […] The standard errors of measurements refer to the non-linear regression analysis.
A non-glycosylated mutant of the SmCB1 zymogen was expressed in the yeast Pichia pastoris, activated by S. mansoni legumain and purified as described previously.[25,43,58] Kinetic measurements were performed in triplicate in 96-well microplates (100 μL assay volume) at 37 °C. […] Substrate hydrolysis was measured fluorometrically in an Infinite M1000 microplate reader (Tecan) at excitation and emission wavelengths of 360 and 465 nm, respectively. Inhibition assays for human cathepsins and cruzain are described in Supplemental Experimental Procedures.

9-SH-closo-1,2-C2B10H11 [compound 2]
Ki: > 100 µM

closo-1,2-C2B10H12 [compound 1, reference compound]
Ki: > 100 µM
